Measured values from several laboratories, pooled; numbers as filed in NIAID ChemDB.

Common to all: whole-cell or culture tests; measure: EC50

An empty or dashed field is not shown.

SMILES	strain or isolate	agent	cells	method	value
N[C@@H]1C=C[C@H](NCCCNCC2CCCCCC2)CCC1		Encephalitozoon cuniculi			<100 µM
CSc1nsc(-c2ccc(OCCOc3ccccc3)cc2)c1C#N		Encephalomyocarditis virus	HEP-2/L-929/VERO	plaque count	>20 µM
CSc1nsc(-c2ccncc2)c1C#N	Encephalomyocarditis virus	Encephalomyocarditis virus	L929	plaque count	>2.5 µM
CCNC/C=C\CNCCCCNCCCCNCCCCNCC		Encephalitozoon cuniculi			137.5 µM
COc1ccc(-c2snc(SC)c2C#N)cc1		Encephalomyocarditis virus	L929	plaque count	>10 µM
C(CNCC1CCC1)CNCC1CCCC(CNCCCNCC2CCC2)C1		Encephalitozoon cuniculi			<250 µM
CSc1nsc(-c2ccc(O)cc2)c1C#N		Encephalomyocarditis virus	L929	plaque count	>2 µM
CSc1nsc(-c2c(Cl)cccc2Cl)c1C#N	Encephalomyocarditis virus	Encephalomyocarditis virus	L929	plaque count	>5 µM
CSc1nsc(-c2ccc(OCCCCOc3ccccc3)cc2)c1C#N		Encephalomyocarditis virus	HEP-2/L-929/VERO	plaque count	>20 µM
CCNCCCCNCCCCNCCCCNCCCCN(CC)CCCCNCCCCNCCCCNCCCCNCC		Encephalitozoon cuniculi			30.3 µM
O=C1CCC(N2C(=O)c3ccccc3C2=O)C(=O)N1		Encephalitozoon cuniculi	MRC-5		>10 µg/mL
CSc1nsc(-c2ccc(OCc3ccccc3)cc2)c1C#N		Encephalomyocarditis virus	L929	plaque count	20 µM
CCOC(=O)c1ccc(OCCOc2ccc(-c3snc(SC)c3C#N)cc2)cc1		Encephalomyocarditis virus	HEP-2/L-929/VERO	plaque count	>2 µM
CCNCCCCNCCCCNCCCCNCCCCNCCCCNCCCCNCCCCNCC		Encephalitozoon cuniculi			1.67 µM
CSc1nsc(-c2ccc[n+](C)c2)c1C#N	Encephalomyocarditis virus	Encephalomyocarditis virus	L929	plaque count	>1250 µM
C(CNCC1CC1)CNCC1CCCC(CNCCCNCC2CC2)C1		Encephalitozoon cuniculi			<100 µM
CCNC/C=C\CNC/C=C\CNC/C=C\CNCCCCNCC		Encephalitozoon cuniculi			385 µM
CSc1nsc(-c2ccc(OCCOc3ccc(C#N)cc3)cc2)c1C#N		Encephalomyocarditis virus	HEP-2/L-929/VERO	plaque count	>2 µM
CSc1nsc(C)c1C#N	Encephalomyocarditis virus	Encephalomyocarditis virus	L929	plaque count	>100 µM
CSc1nsc(-c2ccc(OCCOc3ccc([N+](=O)[O-])cc3)cc2)c1C#N		Encephalomyocarditis virus	HEP-2/L-929/VERO	plaque count	>1 µM
CSc1nsc(-c2ccc(OCc3ccccc3)cc2)c1C#N	Encephalomyocarditis virus	Encephalomyocarditis virus	L929	plaque count	20 µM
C1CCCC(CNCCCNCC2CCCC(CNCCCNCC3CCCCCC3)C2)CC1		Encephalitozoon cuniculi			<100 µM
CCNCCCCNC/C=C\CNC/C=C\CNCCCCNCC		Encephalitozoon cuniculi			500 µM
N#Cc1c(Cl)nsc1Cl	Encephalomyocarditis virus	Encephalomyocarditis virus	L929	plaque count	>4 µM

Repeating the first 3 entries:

N[C@@H]1C=C[C@H](NCCCNCC2CCCCCC2)CCC1 ; agent: Encephalitozoon cuniculi ; value: <100 µM
CSc1nsc(-c2ccc(OCCOc3ccccc3)cc2)c1C#N ; agent: Encephalomyocarditis virus ; cells: HEP-2/L-929/VERO ; method: plaque count ; value: >20 µM
CSc1nsc(-c2ccncc2)c1C#N ; strain or isolate: Encephalomyocarditis virus ; agent: Encephalomyocarditis virus ; cells: L929 ; method: plaque count ; value: >2.5 µM

Rows are shuffled and stem from different studies. ECn is the concentration giving n% inhibition of infection, replication or growth.